Source: PubChem BioAssay AID504761 (Drosophila RNAi Screening Center, 2011)
Screen: 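Genome-wide fly cell screen for genes dengue virus requires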 (primary screen). Cells: D.Mel-2 cells from Drosophila. Reagent: long dsRNA against Drosophila genes. Conditions: infection with dengue virus type 2; dose and infection time not stated. Measured: 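Cells stained for dengue envelope protein and imaged; percent of infected cells per well on duplicate plates, ranked by infection, with stained nuclei counted for cell number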. Direction: infection score: higher = more virus-infected cells. Call rule: 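Low infection ranks in the two replicates (chance level up to 0.065) followed by a retest with a 1.5-fold or larger significant decrease, p below 0.05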. Calls: active = confirmed: knock-down lowers infection; inactive = not picked or not confirmed.
In all, the deposit lists about 22,000 reagents; shown is a random part of those with a known target gene and a result. In the full data, 116 (0.52%) are marked active. 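Calls depend on retest data that are not deposited; infection was ranked per plate without normalising between plates; the unit of the infection score is not given.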 Unmarked entries are inactive. Not all columns of the deposit are shown. Reagent sequences are not shown. Not given: the amount of reagent, the time to read-out.

gene | DRSC id | infection score, replicate 1 | infection score, replicate 2
Mst89B (GeneID 41972) | DRSC16748 | 4.11 | 16.4
foxo (GeneID 41709) | DRSC13017 | 1.59 | 3.16
foxo (GeneID 41709) | DRSC15463 | 17.2 | 17.5
Ugt35C1 (GeneID 53507) | DRSC16080 | 3.7 | 3.1
Ugt35C1 (GeneID 53507) | DRSC28306 | 8.75 | 6.82
Mer (GeneID 32979) | DRSC20259 | 5.52 | 2.59
CG9257 (GeneID 35375) | DRSC03173 | 8.03 | 5.26
CG12948 (GeneID 41187) | DRSC14576 | 0.5 | 1.79
CG12948 (GeneID 41187) | DRSC27910 | 12.3 | 12.4
FeCH (GeneID 43757) | DRSC16948 | 7.02 | 1.89
FeCH (GeneID 43757) | DRSC27562 | 7.88 | 7.56
CG6108 (retired record) (GeneID 34733) | DRSC02929 | 4.87 | 6.82
Rtca (GeneID 31175) | DRSC18517 | 3.29 | 5.88
cv (GeneID 44510) | DRSC17833 | 1.21 | 1.06
mtSSB (GeneID 41968) | DRSC17005 | 5.38 | 8.61
PGS1 (GeneID 42254) | DRSC16304 | 0.94 | 0.75
CG32225 (GeneID 317926) | DRSC09657 | 0.89 | 0.92
CG32225 (GeneID 317926) | DRSC26362 | 8.04 | 13.1
CG33232 (retired record) (GeneID 2769004) | DRSC08187 | 9.52 | 7.76
CG33232 (retired record) (GeneID 2769004) | DRSC08495 | 6.56 | 7.82
CG7367 (GeneID 34094) | DRSC03049 | 1.53 | 2.2
CG7367 (GeneID 34094) | DRSC28024 | 18.1 | 21.8
brk (GeneID 31665) | DRSC23036 | 1.54 | 7.04
brk (GeneID 31665) | DRSC27320 | 14.5 | 11.7
FucT6 (GeneID 32122) | DRSC19848 | 2.19 | 1.93
FucT6 (GeneID 32122) | DRSC26057 | 1.58 | 2.6
Lst8 (GeneID 31903) | DRSC18262 | 1.39 | 3.48
CG12661 (GeneID 31822) | DRSC17864 | 7.42 | 5.64
CG12661 (GeneID 31822) | DRSC29244 | 19.6 | 5.46
tilB (GeneID 33130) | DRSC20634 | 4.83 | 3.78
COX6AL2 (GeneID 40066) | DRSC10082 | 5.98 | 8.56
CG13609 (GeneID 42883) | DRSC14612 | 3.31 | 8.14
CG13609 (GeneID 42883) | DRSC22843 | 0.5 | 0.94
epsilonCOP (GeneID 33908) | DRSC02003 | 1.23 | 1.01
epsilonCOP (GeneID 33908) | DRSC26466 | 8.13 | 6.18
dsx (GeneID 40940) | DRSC12649 | 5.7 | 0.19
dsx (GeneID 40940) | DRSC16934 | 14.2 | 14.1
dsx (GeneID 40940) | DRSC21495 | 0.81 | 2.22
dsx (GeneID 40940) | DRSC26707 | 4.74 | 3.32
CG6733 (GeneID 42731) | DRSC16103 | 3.39 | 1.77
CG33120 (GeneID 326260) | DRSC02073 | 13.8 | 13.6
Vha68-1 (GeneID 45668) | DRSC03470 | 18 | 3.68
Or47b (GeneID 36212) | DRSC07492 | 5.49 | –
MAPk-Ak2 (GeneID 44573) | DRSC18678 | 4.43 | 6.55
MAPk-Ak2 (GeneID 44573) | DRSC29642 | 25.7 | 19.7
Cyp4ac2 (GeneID 33755) | DRSC03303 | 6.35 | 5.41
CG32816 (GeneID 318225) | DRSC17337 | 1.6 | 2.16
tio (GeneID 44272) | DRSC03739 | 4.9 | 5.38
CG16890 (GeneID 34781) | DRSC01890 | 40 | 21.7
CG16890 (GeneID 34781) | DRSC29892 | 14.2 | 4.66
CG6574 (GeneID 41308) | DRSC16070 | 1.58 | 3.33
CG8008 (GeneID 35935) | DRSC07053 | 6.73 | 15.1
CG8008 (GeneID 35935) | DRSC27395 | 5.11 | 17.9
CG17141 (GeneID 42697) | DRSC15178 | – | 9.48
Sys1 (GeneID 41023) | DRSC14372 | 13.1 | 16.2
HLH4C (GeneID 31397) | DRSC18670 | 0.93 | 5.04
HLH4C (GeneID 31397) | DRSC21322 | 0.78 | 2.02
HLH4C (GeneID 31397) | DRSC25228 | 11.1 | 0.77
